Measurements reported in publication PMC3435245, “D-Alanylation of Lipoteichoic Acids Confers Resistance to Cationic Peptides in Group B Streptococcus by Increasing the Cell Wall Density” (PLoS Pathogens, 2012).

How the values were obtained:
[1] = system: GBS WT strain; assay: NBD-labeled peptide fluorescence change on addition of bacteria (membrane interaction), WT; type: cell-based, Streptococcus agalactiae; conditions: NBD-labeled peptide 1 µM, NBD fluorescence relative to basal signal of the peptide after addition of bacteria, room temperature; means of triplicate measurements from two independent experiments
[2] = system: GBS dltA mutant; assay: NBD-labeled peptide fluorescence change on addition of bacteria (membrane interaction), dltA; type: cell-based, Streptococcus agalactiae; conditions: NBD-labeled peptide 1 µM
[3] = difference in the signal change between dltA strain to the WT strain

NBD-LL37: LL37 labeled with NBD at its N-terminus
Signal change [%], NaCl (16 mM), WT [1]: 47.0% | Signal change [%], NaCl (160 mM), WT [1]: −3.4% | Signal change [%], NaCl (160 mM), dltA ([2]; NBD fluorescence relative to basal signal of the peptide after addition of bacteria, room temperature, means of triplicate measurements from two independent experiments): −3.7% | Difference in signal change [%], NaCl (16 mM), Δ(dltA-WT) [2, 3]: 12.1% | Difference in signal change [%], NaCl (160 mM), Δ(dltA-WT) [2, 3]: −0.3%
